Compound potency records, mixed from different reports. Data source: NIAID ChemDB in PubChem.

Shared fields: growth or infection tests; agent: Hepatitis B virus; measure: EC50

a–b is a range or a potency band. Lines come from different laboratories, so protocols vary. Blank or dashed fields: not listed here. ECn is the concentration giving n% inhibition of infection, replication or growth.

SMILES | strain | mutations | cell line | read by | result
Cc1c(C(=O)C(=O)NC(C)(C)c2ccccn2)c(C)n(C)c1C(=O)Nc1ccc(F)c(C(F)(F)F)c1 | - | - | HepG2.2.15 | PCR | 0.001–0.0099 µM
Cn1cc2c(c1C(=O)Nc1cc(F)c(F)c(F)c1)OC[C@@H]1CN(C(=O)C(=O)NC3(C)COC3)C[C@@H]1NS2(=O)=O | - | - | HepAD38 | PCR | <0.5 µM
COC(=O)C1=C(CN2CC(F)(F)[C@@H]3[C@H]2CON3C[C@H](OC)C(C)(C)C(=O)O)NC(c2nccs2)=N[C@H]1c1ccc(F)c(F)c1C | - | - | HepG2.2.15 | PCR | 0.003 µM
O=C(NCc1ccc(OC(F)F)cc1F)c1c2n(c(=O)n1-c1ccc(OC3CC3)cc1)CCN(C(=O)c1ccc(Br)c(Cl)c1)C2 | - | - | HepG2.117 | PCR | 0.1–0.5 µM
Cc1cc(NC(=O)c2c3c(cn2C)S(=O)(=O)N[C@H]2CN(C(=O)C(=O)N4CC(F)(F)C4)C[C@H]2CS3)ccc1F | - | - | HepAD38 | PCR | <0.5 µM
Cc1nc(-c2ccc(-n3c(=O)c4c(n5ncc(CC(C)C)c35)CN(C(=O)c3ccc(Cl)c(C(F)(F)F)c3)[C@@H](C)C4)cc2)n[nH]1 | - | - | HepG2.117 | luminescence | 0.5–5 µM
CNC(=O)c1cc2c(cc1OCCCOC)S(=O)(=O)C(C)c1cc(C(=O)O)c(=O)n(C3CC3)c1-2 | - | - | Primary human hepatocytes | antigen / visual reading / absorbance | >0.5 µM
COc1ccc(-n2c(C(=O)NCc3ccc(Cl)c(OC)c3)c3n(c2=O)CCN(C(=O)c2ccc(Cl)c(Cl)c2)C3)cc1 | - | - | HepG2.117 | PCR | 0.5–5 µM
Cn1nc2cc(NS(=O)(=O)N3CCCC3)ccc2c1C(=O)Nc1ccc(F)c(Cl)c1 | - | - | HepAD38 | PCR | 100–1000 µM
C[C@@H](NC(=O)C(=O)N1C[C@H]2COc3c(cn(C)c3C(=O)Nc3ccc(F)c(Cl)c3)S(=O)(=O)N[C@H]2C1)C(F)(F)F | - | - | HepAD38 | PCR | <0.5 µM
C[C@H](NC(=O)c1c2n(c(=O)n1-c1ccc(OC3CC3)cc1)CCN(C(=O)c1ccc(Br)c(Cl)c1)C2)c1ccc(OC2COC2)cc1F | - | - | HepG2.117 | PCR | 0.1–0.5 µM
CCOCCOc1cc2c(cc1Cl)-c1c(cc(C(=O)OC(C)C)c(=O)n1C1CC1)C(C)S2 | - | - | Primary human hepatocytes | antigen | 0.1–0.5 µM
CNC(=O)c1ccc(-n2c(=O)c3c(n4ncc(Cc5ccsc5)c24)CN(C(=O)c2ccc(Br)c(C(F)(F)F)c2)CC3)cc1 | - | - | HepG2.117 | luminescence | ≤0.05 µM
O=C(O)c1cc2c(n(C3CC3)c1=O)-c1cc(Cl)c(OCC3CCC3)cc1S(=O)(=O)C2 | - | - | Primary human hepatocytes | antigen / visual reading / absorbance | >0.5 µM
CCOC(=O)C1=C(CN2CC(F)(F)[C@@H]3[C@H]2CON3CC[C@@](C)(O)C(=O)O)NC(c2nccs2)=N[C@H]1c1cccc(F)c1C | - | - | HepG2.2.15 | PCR | 0.3005 µM
Cn1nc2cc(NS(=O)(=O)c3cnn(-c4cccnc4N)c3)ccc2c1C(=O)Nc1ccc(F)c(Cl)c1 | - | - | HepAD38 | PCR | 100–1000 µM
CC(C)[C@H](N)C(=O)OCNC(=O)c1ccc(-n2c(=O)c3c(n4ncc(CC5CC5)c24)CN(C(=O)c2ccc(Br)c(C(F)(F)F)c2)C(C)C3)cc1 | - | - | HepG2.117 | luminescence | ≤0.05 µM
CN1[C@H](C(=O)Nc2ccc(F)c(Cl)c2)C[C@H](c2ncc(-c3cn(C)cn3)s2)NS1(=O)=O | Genotype D | - | HepG2-NTCP | fluorescence | 0.027 µM
Cc1cc2occc2cc1CNC(=O)c1c2n(c(=O)n1-c1ccc(OCC(F)(F)F)cc1)CCN(C(=O)c1ccc(Br)c(Cl)c1)C2 | - | - | HepG2.117 | PCR | 0.1–0.5 µM
CC1c2cc(C(=O)O)c(=O)n(C3CC3)c2-c2cc(Cl)c(OCCC3CC3)cc2S1(=O)=O | - | - | Primary human hepatocytes | antigen / visual reading / absorbance | 0.05–0.1 µM
Cc1n[nH]nc1-c1ccc(-n2c(=O)c3c(n4ncc(CC(C)C)c24)CN(C(=O)c2ccc(Br)c(Cl)c2)[C@H](C)C3)cc1 | - | - | HepG2.117 | luminescence | ≤0.05 µM
Cn1nc2cc(NS(=O)(=O)c3cnn(Cc4ccccn4)c3)ccc2c1C(=O)Nc1ccc(F)c(Cl)c1 | - | - | HepAD38 | PCR | 100–1000 µM
Cc1c(C(=O)C(=O)NC(C)(C)c2ncc[nH]2)c(C)n(C)c1C(=O)Nc1ccc(F)c(C(F)(F)F)c1 | - | - | HepG2.2.15 | PCR | 0.001–0.0099 µM
C[C@H]1Cc2c(n3ncc(CC4CC4)c3n(-c3ccc(-c4nncn4C)cc3)c2=O)CN1C(=O)c1ccc(Br)c(C(F)(F)F)c1 | - | - | HepG2.117 | luminescence | 0.05–0.5 µM
CCCOc1cc2c(cc1Cl)-c1c(cc(C(=O)O)c(=O)n1C1CC1)C(C)S2(=O)=O | - | - | Primary human hepatocytes | antigen / visual reading / absorbance | 0.05–0.1 µM
CNC(=O)C(=O)N1CCC[C@@H](NS(=O)(=O)c2cn(C)c(C(=O)Nc3cc(F)c(F)c(F)c3)c2Cl)C1 | - | - | HepAD38 cells | PCR | <0.1 µM
CCOC(=O)C1=C(CN2CC(F)(F)[C@@H]3[C@H]2CON3C[C@@H](OCC)C(C)(C)C(=O)O)NC(c2nccs2)=N[C@H]1c1cccc(F)c1C | - | - | HepG2.2.15 | PCR | 0.002 µM
COc1cccc(CNS(=O)(=O)Nc2ccc3c(C(=O)Nc4ccc(F)c(Cl)c4)n(C)nc3c2)n1 | - | - | HepAD38 | PCR | 100–1000 µM
CCOC(=O)C1=C(CN2CC(F)(F)[C@@H]3[C@H]2CON3CC[C@@](C)(OC)C(=O)O)NC(c2nccs2)=N[C@H]1c1cccc(F)c1C | - | - | HepG2.2.15 | PCR | 0.099 µM
CNOCc1ccc(-n2c(=O)c3c(n4ncc(CC5CCCC5)c24)CN(C(=O)c2ccc(Br)c(Cl)c2)CC3)cc1 | - | - | HepG2.117 | luminescence | ≤0.05 µM
Cn1nc2cc(NCS(=O)(=O)N(CC3CC3)C3CC3)ccc2c1C(=O)Nc1ccc(F)c(Cl)c1 | - | - | HepAD38 | PCR | 100–1000 µM
CNC(=O)c1ccc(-n2c(=O)c3c(n4ncc(CC5CCOC5)c24)CN(C(=O)c2ccc(Br)c(Cl)c2)CC3)cc1 | - | - | HepG2.117 | luminescence | ≤0.05 µM
CCOC(=O)C1=C(CN2CC(F)(F)[C@@H]3[C@H]2CON3C[C@@H](OC)C(C)(C)C(=O)O)NC(c2nc(C)cs2)=N[C@H]1c1cccc(F)c1C | - | - | HepG2.2.15 | PCR | 0.001 µM
COc1ccc(-n2c(C(=O)N[C@@H](c3ccccc3)C(C)C)c3n(c2=O)CCN(C(=O)c2ccc(Br)c(Cl)c2)C3)cc1 | - | - | HepG2.117 | PCR | 0.5–5 µM
Cc1c(C(=O)C(=O)NC2(c3cn[nH]n3)COC2)c(C)n(C)c1C(=O)Nc1ccc(F)c(C#N)c1 | - | - | HepG2.2.15 | PCR | 0.001–0.0099 µM
CNS(=O)(=O)N1CC[C@@H](NS(=O)(=O)c2c(F)c(C(=O)Nc3ccc(F)c(F)c3)n3c2CCCC3)C1 | - | - | HepAD38 cells | PCR | <0.1 µM
CCOC(=O)C1=C(CN2CC(F)(F)[C@@H]3[C@H]2CON3C[C@H](OC)C(C)(C)C(=O)O)NC(c2nccs2)=N[C@H]1c1ccc(F)c(F)c1Cl | - | - | HepG2.2.15 | PCR | 0.0035 µM
C[C@@H]1Cc2c(n3ncc(CC4CCC4)c3n(-c3ccc(-c4n[nH]nc4N)cc3)c2=O)CN1C(=O)c1ccc(Br)c(C(F)(F)F)c1 | - | - | HepG2.117 | luminescence | ≤0.05 µM
CC1c2cc(C(=O)O)c(=O)n(C3CC3)c2-c2cc(Cl)c(-c3cnn(C)c3)cc2S1(=O)=O | - | - | Primary human hepatocytes | antigen / visual reading / absorbance | 0.1–0.5 µM
COc1ccc(-n2c(C(=O)NCc3ccc(CC(N)=O)cc3)c3n(c2=O)CCN(C(=O)c2ccc(Br)c(Cl)c2)C3)cc1 | - | - | HepG2.117 | PCR | 0.5–5 µM
Cc1ccc(-n2cc(S(=O)(=O)Nc3ccc4c(C(=O)Nc5ccc(F)c(Cl)c5)n(C)nc4c3)cn2)nc1 | - | - | HepAD38 | PCR | <100 µM
COCCCOc1cc2c(cc1-c1ncc(C)s1)-c1c(cc(C(=O)O)c(=O)n1C1CC1)C(C)S2(=O)=O | - | - | Primary human hepatocytes | antigen / visual reading / absorbance | >0.5 µM
Cc1cc(NC(=O)c2c3c(cn2C)S(=O)(=O)N[C@H]2CN(C(=O)C(=O)N[C@H](C)C(F)(F)F)C[C@H]2CO3)ccc1F | - | L37Q | HepG2 | PCR | 0.00872 µM
COc1cccnc1-n1cc(S(=O)(=O)Nc2ccc3c(C(=O)Nc4ccc(F)c(Cl)c4)n(C)nc3c2)cn1 | - | - | HepAD38 | PCR | <100 µM
COCCNC(=O)C(=O)N1CC[C@@H](NS(=O)(=O)c2cn(C)c(C(=O)Nc3ccc(F)c(F)c3)c2F)C1 | - | - | HepAD38 cells | PCR | <0.1 µM
Cn1nc2cc(NS(=O)(=O)NCC3CC3)ccc2c1C(=O)Nc1ccc(F)c(Cl)c1 | - | - | HepAD38 | PCR | 100–1000 µM
C#C[C@](CO)(NC(=O)C(=O)c1c(C)c(C(=O)Nc2ccc(F)c(C#N)c2)n(C)c1C)C1CC1 | - | - | HepG2.2.15 | PCR | 0.001–0.0099 µM
CCNC(=O)C(=O)NC1CCN(S(=O)(=O)c2cn(C)c(C(=O)Nc3cc(F)c(F)c(F)c3)c2F)CC1 | - | - | HepAD38 cells | PCR | 0.1–0.3 µM
CC1c2cc(C(=O)O)c(=O)n(C3CC3)c2-c2cc(Cl)c(-c3cnc(N4CCCC4)nc3)cc2S1(=O)=O | - | - | Primary human hepatocytes | antigen / visual reading / absorbance | >0.5 µM

6 of the rows above, restated:

{"SMILES": "CNC(=O)c1ccc(-n2c(=O)c3c(n4ncc(CC5CCOC5)c24)CN(C(=O)c2ccc(Br)c(Cl)c2)CC3)cc1", "cell line": "HepG2.117", "read by": "luminescence", "result": "≤0.05 µM"}
{"SMILES": "COc1ccc(-n2c(C(=O)N[C@@H](c3ccccc3)C(C)C)c3n(c2=O)CCN(C(=O)c2ccc(Br)c(Cl)c2)C3)cc1", "cell line": "HepG2.117", "read by": "PCR", "result": "0.5–5 µM"}
{"SMILES": "Cc1c(C(=O)C(=O)NC(C)(C)c2ncc[nH]2)c(C)n(C)c1C(=O)Nc1ccc(F)c(C(F)(F)F)c1", "cell line": "HepG2.2.15", "read by": "PCR", "result": "0.001–0.0099 µM"}
{"SMILES": "O=C(NCc1ccc(OC(F)F)cc1F)c1c2n(c(=O)n1-c1ccc(OC3CC3)cc1)CCN(C(=O)c1ccc(Br)c(Cl)c1)C2", "cell line": "HepG2.117", "read by": "PCR", "result": "0.1–0.5 µM"}
{"SMILES": "CNOCc1ccc(-n2c(=O)c3c(n4ncc(CC5CCCC5)c24)CN(C(=O)c2ccc(Br)c(Cl)c2)CC3)cc1", "cell line": "HepG2.117", "read by": "luminescence", "result": "≤0.05 µM"}
{"SMILES": "Cn1nc2cc(NCS(=O)(=O)N(CC3CC3)C3CC3)ccc2c1C(=O)Nc1ccc(F)c(Cl)c1", "cell line": "HepAD38", "read by": "PCR", "result": "100–1000 µM"}